Measured values from several laboratories, pooled; numbers as filed in NIAID ChemDB.

All rows: whole-cell or culture tests; organism: Mycobacterium tuberculosis

Inhibition is in % at the dose shown (toxicity tests: loss of growth or viability). a–b is a range or a potency band. MIC bound comes from a single tested concentration. An empty or dashed field is not shown. MIC50, MIC90 and the like: level of inhibition, or share of isolates inhibited. ECn is the concentration giving n% inhibition of infection, replication or growth. Conditions beyond the fields shown may differ between rows.

SMILES,strain or isolate,read-out,method,mutations,cell line,dose,value
CCCCCc1ccc(Oc2cnccc2C#N)c(O)c1,,MIC100,,,,,12.5 µg/mL
NNC(=O)c1ccncc1,Mutation katG315,MIC,,,,,>3 µg/mL
NC[C@@H]1O[C@H](O[C@H]2[C@@H](O)[C@H](O[C@@H]3[C@@H](O)[C@H](N)C[C@H](N)[C@H]3O[C@H]3O[C@H](CO)[C@@H](O)[C@H](O)[C@H]3N)O[C@@H]2CO)[C@H](N)[C@@H](O)[C@@H]1O,H37Rv,MIC,,,,,<0.09 µg/mL
C=C[C@@H](O)C#CC#CC[C@H]1O[C@H]1CCCCCCC,H37Ra,EC50,resazurin,,,,23.5 µM
Cc1ccc2nc(-c3nc4ncccc4n3C)sc2c1,H37Rv,MIC,,,,,25 µg/mL
CCOC1Oc2ccccc2C(=O)/C1=C\Nc1cccc(C(=O)O)c1O,H37Rv,MIC,,,,,>100 µg/mL
CN[C@@H]1[C@H](O[C@H]2[C@H](O[C@H]3[C@H](O)[C@@H](O)[C@H](N=C(N)N)[C@@H](O)[C@@H]3N=C(N)N)O[C@@H](C)[C@]2(O)C=O)O[C@@H](CO)[C@H](O)[C@H]1O,MTB25 (S),MIC,,,,,0.3 µg/mL
O=[N+]([O-])c1ccc(S(=O)(=O)c2c(Cl)cccc2Cl)c2ncccc12,H37Rv,MIC,,,,,>200 µg/mL
O=[N+]([O-])c1cn2c(n1)OC[C@@H](OCc1ccc(C#Cc3ccc(C(F)(F)F)cn3)cn1)C2,,MIC90,resazurin,,,,0.04 µM
Cc1cc(Oc2ccc(N)c3cccnc23)ccc1Cl,H37Rv,MIC,,,,,0.1 µg/mL
CC[C@@H](CO)NCCN[C@@H](CC)CO,H37Rv,MIC,resazurin,,,,7.63 µM
O=[N+]([O-])c1ccc(Oc2ccc3ccccc3c2)c2ncccc12,H37Rv,MIC,,,,,1 µg/mL
Cc1c(F)c(N2CCNC(C)C2)cc2c1c(=O)c(C(=O)O)cn2C1CC1,37 strains (drug-resistant),MIC90,,,,,4 µg/mL
CCN(CC)c1ccc2nc3ccc(N=Nc4c(O)ccc5ccccc45)cc3[n+](-c3ccccc3)c2c1.[Cl-],H37Rv,MIC,BACTEC,,VERO,,<0.1 µg/mL
COc1cc(/C=N/NC(=O)c2nc3ncccc3n2C)ccc1O,H37Rv,MIC,,,,,250 µg/mL
Oc1ccc(CNCc2ccccc2)c2cccnc12,H37Rv,inhibition,resazurin,,,6.25 µg/mL,24%
CCCCCc1ccc(Oc2ccccc2)c(O)c1,,MIC100,,,,,2.1 µg/mL
CC(=O)O.Nc1nc(=O)nc2[nH]c3c4cccc5cccc(c3nc12)c54,H37Rv,inhibition,BACTEC,,,12.5 µg/mL,2%
CCCCCc1ccc(Oc2ccccc2C#N)c(O)c1,,MIC100,,,,,2.5 µg/mL
COc1ccc2nc(-c3nc4ncccc4n3C)sc2c1,H37Rv,MIC,,,,,6.2 µg/mL
Cc1ccnc(NS(=O)(=O)c2ccc(N=CC3C(=O)N(c4ccccc4)N(c4ccccc4)C3=O)cc2)n1,H37Rv,inhibition,resazurin,,,6.25 µg/mL,-17%
CCCCCCCCCCCCCCCCCC(=O)OCCc1ccc(O)cc1,H37Rv (ATCC 27294),MIC,,,,,>128 µg/mL
Nc1n[nH]c(=O)[nH]1,H37Rv,inhibition,BACTEC,,,12.5 µg/mL,19%
CCCCCc1ccc(Oc2ccccc2I)c(O)c1,,MIC100,,,,,25 µg/mL
CC[C@H]1C[C@@H]2CN3CCc4c([nH]c5ccc(OC)cc45)[C@](C(=O)OC)(C2)[C@H]13,H37Rv,MIC,,,,,50 µg/mL
O=c1c2ccccc2c2cc3nc4ccc([N+](=O)[O-])cc4c(=O)n3c3cccc1c23,H37Rv,inhibition,BACTEC,,,12.5 µg/mL,-14%
CCn1cc(C(=O)O)c(=O)c2cc(F)c(N3CCNCC3)cc21,H37RV (INH-R),MIC,,,,,31.2 µg/mL
CCOC1Oc2ccc(C)cc2C(=O)/C1=C\Nc1ccc(C(=O)O)c(O)c1,H37Rv,MIC,,,,,25 µg/mL
NNC(=O)c1ccncc1,10 isolates,MIC,,,,,0.06–0.48 µg/mL
Cc1cc(C)[n+]2[nH]c(C(=O)NS(=O)(=O)c3ccccc3CF)nc2n1,,MIC,broth dilution,,,,<0.25 µg/mL
CCC(C)[C@H](NC(=O)CCC(C)[C@H]1CCC2C3CCC4C[C@H](O)CC[C@]4(C)C3C[C@H](O)[C@@]21C)C(=O)OCc1cn(CC2OC(n3cnc4c(N)ncnc43)[C@@H]3OC(C)(C)O[C@H]23)nn1,H37Rv,MIC,resazurin,,,,14.26 µM
Cn1c(C(=O)N/N=C\c2ccco2)nc2ncccc21,H37Rv,MIC,,,,,125 µg/mL
Nc1ccc(S(=O)(=O)c2c(Cl)cccc2Cl)c2ncccc12,H37Rv,MIC,,,,,1 µg/mL
C=C1C(=O)O[C@H]2/C=C(\C)C[C@@H]3C=C(CC/C=C(\C)CC[C@H]12)C(=O)O3,H37Rv,inhibition,BACTEC,,,12.8 µg/mL,0%
O=[N+]([O-])c1cn2c(n1)OC[C@@H](OCc1ccc(N3CCN(S(=O)(=O)c4ccc(OC(F)(F)F)cc4)CC3)cc1)C2,,MIC90,resazurin,,,,0.5 µM
NNC(=O)c1ccncc1,H37Rv,MIC,resazurin,,,,0.02 µM
C=CC[C@H]1C[C@H](n2cc(C)c(=O)[nH]c2=O)O[C@@H]1CO[Si](C)(C)C(C)(C)C,H37Rv,inhibition,resazurin,,,6.25 µg/mL,40%
O=[N+]([O-])c1cn2c(n1)OC[C@@H](OCc1ccc(C#Cc3ccc(C(F)(F)F)cn3)cc1)C2,,MIC90,low oxygen,,,,6.9 µM
CCN(CC)CCNc1ccc(CO)c2oc3ccc(OS(=O)(=O)c4ccc(C)cc4)cc3c(=O)c12,H37Rv,MIC,BACTEC,,VERO,,6.25 µg/mL
CC(C)Cn1c(-c2ccc(Br)cc2)cs/c1=N\NC(=O)COc1cnccn1,H37Rv,MIC,,,,,18 µg/mL
CC(C)(O)[C@H](O)COc1c2occc2cc2ccc(=O)oc12,H37Rv,MIC,,,,,100 µg/mL
Clc1ccc(CC(Cn2ccnc2)c2ccccc2Cl)cc1,H37Rv,inhibition,resazurin,,,6.25 µg/mL,96%
C[C@@H](O)[C@H]1C(=O)N2C(C(=O)O)=C(S[C@@H]3CN[C@H](C(=O)N(C)C)C3)C[C@]12C,,MIC,,,,,0.47 µM
Nc1ccc(S(=O)(=O)c2nc3ccccc3s2)c2ncccc12,H37Rv,MIC,,,,,100 µg/mL
COc1cccc(CN2C(=O)c3c(C)nc(-c4nc(C)no4)c(N)c3C2=O)c1,H37Rv-MA,MIC90,resazurin / visual reading,Ala317Thr,,,>10 µM
CC(CCC(=O)N[C@@H](Cc1ccccc1)C(=O)OCc1cn(CC2OC(n3ccc(=O)[nH]c3=O)[C@@H]3OC(C)(C)O[C@H]23)nn1)[C@H]1CCC2C3C(C[C@H](O)[C@@]21C)[C@@]1(C)CC[C@@H](O)CC1C[C@H]3O,H37Rv,MIC,resazurin,,,,13.84 µM
CC1=NC2C(=O)N(C)C(=O)N(C)C2n2c(O)ccc21,H37Rv,MIC bound,BACTEC,,,,>12.5 µg/mL
CCOC1Oc2ccccc2C(=O)/C1=C\Nc1ccc(C(=O)O)c(O)c1,H37Rv,MIC,,,,,25 µg/mL
COC(=O)CC1(CC(N)=O)OCCS1,H37Rv,inhibition,BACTEC,,,12.5 µg/mL,6%
CCOC1Oc2ccccc2C(=O)/C1=C\Nc1ccc(O)c(C(=O)O)c1,H37Rv,MIC,,,,,>100 µg/mL
Cc1cc(S(=O)(=O)Nc2nc(N)n(-c3ccccc3)n2)c(S)cc1Cl,H37Rv,inhibition,BACTEC,,,12.5 µg/mL,0%
O=C(Nc1ccc(OC(F)(F)F)cc1)c1ccc(CO[C@@H]2COc3nc([N+](=O)[O-])cn3C2)cc1,,MIC90,resazurin,,,,0.06 µM
CCCCCc1ccc(Oc2c(C)cccc2N)c(O)c1,,MIC100,,,,,>100 µg/mL
COC(=O)[C@@H]1c2cc3c(c(O)c2[C@@H](OC)C[C@@]1(C)O)C(=O)c1c(O)cc2c(c1C3=O)O[C@@H]1O[C@@]2(C)[C@H](O)[C@@H](N(C)C)[C@@H]1O,H37Rv,inhibition,BACTEC,,,12.5 µg/mL,98%
O=[N+]([O-])c1cn2c(n1)OC[C@@H](OCc1ccc(N3CCN(c4ccc(C(F)(F)F)cn4)CC3)cc1)C2,,MIC90,resazurin,,,,0.02 µM
O=[N+]([O-])c1ccc(Sc2nc3ccccc3s2)c2ncccc12,H37Rv,MIC,,,,,100 µg/mL
O=[N+]([O-])c1cn2c(n1)OC[C@@H](OCc1ccc(-c3ccc(Oc4ccc(OC(F)(F)F)cc4)cc3)cc1)C2,,MIC90,resazurin,,,,0.045 µM
C[C@H]1COc2c(N3CCN(C)CC3)c(F)cc3c(=O)c(C(=O)O)cn1c23,45 strains (drug-susceptible),MIC50,,,,,≤0.5 µg/mL
CCCCCc1ccc(Oc2c(F)cccc2Cl)c(O)c1,,MIC100,,,,,25 µg/mL
Cn1c(C(N)NO)nc2ncccc21,H37Rv,MIC,,,,,250 µg/mL
CCCCCCCCCCCCCCCCCCCCCC(=O)OCCc1ccc(O)cc1,H37Rv (ATCC 27294),MIC,,,,,>128 µg/mL
O=Cc1ccc(/C=N/NC(=O)c2ccncc2)cc1,katG (S315T),MIC99,BACTEC,,,,>39.5 µM
CCCCNC(=S)NNC(=O)COc1cnccn1,H37Rv,MIC,,,,,56 µg/mL
O=c1[nH]c2ccc(CC(=S)N3CCN(c4ccccc4)CC3)cc2s1,H37Rv,MIC bound,BACTEC,,,,>6.25 µg/mL
CC(CCC(=O)OCc1cn(CC2OC(n3ccc(=O)[nH]c3=O)[C@@H]3OC(C)(C)O[C@H]23)nn1)[C@H]1CCC2C3CCC4C[C@H](O)CC[C@]4(C)C3C[C@H](O)[C@@]21C,H37Rv,MIC,resazurin,,,,8.45 µM
Cc1ccc(NC(=S)SCc2ccc(Cl)cc2)cc1Cl,H37Rv,MIC,BACTEC,,,,>12.5 µg/mL
O=[N+]([O-])c1ccc(Sc2nccs2)c2ncccc12,H37Rv,MIC,,,,,100 µg/mL
CC1(O)OC(=O)CC2(C)OC12,H37Rv,MIC bound,resazurin,,,,>6.25 µg/mL
COc1nc2ccc(Br)cc2cc1[C@@H](c1ccccc1)[C@@](O)(CCN(C)C)c1cccc2ccccc12,H37Rv,MIC,,,,,0.25 µg/mL
CCc1nnc2n1N=C(c1ccc(-c3ccccc3)cc1)CS2,H37Rv,inhibition,BACTEC,,,12.5 µg/mL,77%
CCCCCc1ccc(Oc2cccnc2)c(O)c1,,MIC100,,,,,3.13 µg/mL
O=[N+]([O-])c1cn2c(n1)OC[C@@H](OCc1ccc(C#Cc3ccc(C(F)(F)F)nc3)nc1)C2,,MIC90,resazurin,,,,0.7 µM
CC(CCC(=O)N[C@@H](C)C(=O)OCc1cn(CC2OC(n3cnc4c(N)ncnc43)[C@@H]3OC(C)(C)O[C@H]23)nn1)[C@H]1CCC2C3CCC4C[C@H](O)CC[C@]4(C)C3C[C@H](O)[C@@]21C,H37Rv,MIC,resazurin,,,,14.99 µM
COc1ccc2ccc(=O)oc2c1CC(=O)C(C)C,H37Rv,MIC,,,,,100 µg/mL
CCCCCCCCCCCCCCCCCCCC(=O)OCCc1ccc(OC)cc1,H37Rv (ATCC 27294),MIC,,,,,>128 µg/mL
NNC(=O)[C@@H](O)[C@H](O)C(=O)NN,H37Rv,MIC bound,BACTEC,,,,>12.5 µg/mL
O=[N+]([O-])c1ccc(S(=O)(=O)c2ccc(O)cc2)c2ncccc12,H37Rv,MIC,,,,,40 µg/mL
CCCCCCCCCCCCCCCCCCCC(=O)OCCc1ccc(O)cc1,H37Rv (ATCC 27294),MIC,,,,,>128 µg/mL
CCCCCc1ccc(Oc2ccccc2C(F)(F)F)c(O)c1,,MIC100,,,,,50 µg/mL
CC(C)CCCC(C)C1CCC2C3CCC4CC(NC(=O)CNCCCSC(C)C)CCC4(C)C3CCC12C,H37Rv,MIC,resazurin,,,,3.13 µg/mL
CCCCCCCCCCCCCCCCC(=O)OCCc1ccc(O)cc1,H37Rv (ATCC 27294),MIC,,,,,>128 µg/mL
CC(C)n1c(-c2ccc(F)cc2)cs/c1=N\NC(=O)COc1cnccn1,H37Rv,MIC,,,,,8.5 µg/mL

Again, the opening 6 rows:

SMILES | strain or isolate | read-out | method | mutations | cell line | dose | value
CCCCCc1ccc(Oc2cnccc2C#N)c(O)c1 |  | MIC100 |  |  |  |  | 12.5 µg/mL
NNC(=O)c1ccncc1 | Mutation katG315 | MIC |  |  |  |  | >3 µg/mL
NC[C@@H]1O[C@H](O[C@H]2[C@@H](O)[C@H](O[C@@H]3[C@@H](O)[C@H](N)C[C@H](N)[C@H]3O[C@H]3O[C@H](CO)[C@@H](O)[C@H](O)[C@H]3N)O[C@@H]2CO)[C@H](N)[C@@H](O)[C@@H]1O | H37Rv | MIC |  |  |  |  | <0.09 µg/mL
C=C[C@@H](O)C#CC#CC[C@H]1O[C@H]1CCCCCCC | H37Ra | EC50 | resazurin |  |  |  | 23.5 µM
Cc1ccc2nc(-c3nc4ncccc4n3C)sc2c1 | H37Rv | MIC |  |  |  |  | 25 µg/mL
CCOC1Oc2ccccc2C(=O)/C1=C\Nc1cccc(C(=O)O)c1O | H37Rv | MIC |  |  |  |  | >100 µg/mL